Experimental data from PubChem BioAssay AID602233 (National Center for Advancing Translational Sciences (NCATS), 2012).
The entries are a selection whose mix differs from that of the whole data set. The source made the active and inactive calls. Calls follow the shape of the dose curve; as a rule, active = well fitted inhibition curve with a large enough effect; inconclusive = small, poorly fitted or top-dose-only effect; inactive = no such curve, though single readings can be large or run the other way.

What follows are molecules tested against Phosphoglycerate kinase, glycosomal (Trypanosoma brucei brucei) (UniProt P07378) (assay: qHTS Assay to Find Inhibitors of Phosphoglycerate Kinase). Conditions: PGK/GAPDH coupled, Kinase-Glo luminescence, 60 min; activity change, negative = inhibition: at 57.5 µM (top of the series).
From the text: Several species of the Trypanosomatidae family of parasitic protozoans cause a spectrum of diseases throughout the tropical and subtropical world. Sleeping sickness, caused by two subspecies of Trypanosoma brucei, is endemic to areas of sub-Saharan Africa, while Chagas disease, a manifestation of Trypanosoma cruzi infection, is prevalent throughout Central and South America. In addition, many species of Leishmania are responsible for a range of cutaneous and visceral diseases, causing ulcers, destructive lesions and kalaazar, a lethal infection of the viscera. Collectively, these organisms infect 30 million people worldwide (~500 million live in endemic areas), and account for ~130,000 deaths annually. Given their debilitating and prevalent nature, trypanosomatid parasites impose a heavy medical, economic and social burden on entire populations, primarily in the developing world. The problem is further exacerbated by the fact that existing treatments have progressed little in the past 50 years, and current drugs show high toxicity and poor efficacy. […] Blood-stream stages of T. brucei are entirely dependent on glycolysis as a source of ATP, and the tricarboxylic acid cycle and oxidative phosphorylation are both repressed. Glycolysis in axenically cultured T. cruzi, representing the intracellular pathogenic stage, is also essential for these parasites. […] Previous studies have shown that the glycolytic enzyme, phosphoglycerate kinase (PGK), is a viable target for drugs to kill these parasites. […] NIH Molecular Libraries Probe Production Network [MLPCN] NIH Chemical Genomics Center [NCGC] MLPCN Grant: R03 MH093212 PI Name: Malcolm Walkinshaw, University of Edinburgh
3ul of substrate/PGK buffer (columns 1,2,5-48) are dispensed into Greiner white solid bottom 1536-well assay plates; columns 3-4 receive only TEA buffer as 0x PGK controls. Compounds are then transferred via Kalypsys pin tool equipped with 1536-pin array (10nl slotted pins, V&P Scientific, San Diego, CA). Following addition of compound, 1ul of GAPDH (100nM final concentration, all columns) is added to initiate the reaction (this upstream coupling enzyme is necessary for in-well production of PGK substrate, 1,3-bisphosphoglycerate (1,3-BPG), which is unstable and not commercially available). The plates are then incubated at room temperature for 60 minutes. Kinase-Glo Plus reagent is added (2ul) and plates incubated for 10 minutes, before being transferred to a ViewLux high-throughput CCD imager (PerkinElmer) wherein single end-point measurements of luminescence are acquired using a clear filter. All reagents are diluted in an assay buffer consisting of 100mM TEA (pH 7.6), 5mM MgCl2 and 0.01% Tween-20.
% is scaled to controls: 0 for no effect and ±100 for the full control effect.
Also: nearly all actives have a fitted effect of over 60% in size.

Row | SMILES | activity change, negative = inhibition
1 | CCN1CCC(Nc2cccc(F)c2)CC1 | inactive: -5.89%
2 | Cc1ccccc1NC1(C#N)CCN(Cc2ccccc2)CC1 | inactive: -7.36%
3 | Cn1c(=O)[nH]cc(N(CCCl)CCCl)c1=O | inactive: 3.66%
4 | CN(C)c1ccc(C(=O)NCC2(N3CCCCC3)CCCCC2)cc1 | inactive: 2.51%
5 | CC(C)(C)c1ccc(C(=O)NCC2(N3CCOCC3)CCCCC2)cc1 | inactive: -0.0533%
6 | O=C(NCC1(N2CCCCC2)CCCCC1)c1ccco1 | inactive: -8.49%
7 | Cc1ccccc1C(=O)NCC1(N(C)C)CCCCC1 | inactive
8 | COc1cc(OC)cc(C(=O)NCC2(N3CCCCC3)CCCCC2)c1 | inactive: -1.39%
9 | CC(=O)N(c1ccccc1)C1CCNCC1 | inactive: 1.32%
10 | CN(C)C1(CNC(=O)c2ccc(C(C)(C)C)cc2)CCCCC1 | inactive
11 | Cc1ccc(NC2(C#N)CCN(Cc3ccccc3)CC2)cc1 | inactive: -8.56%
12 | Cc1ccc(Nc2c([N+](=O)[O-])cc([N+](=O)[O-])cc2[N+](=O)[O-])cc1 | inactive: -9.97%
13 | Fc1ccccc1NC1CCN(Cc2ccccc2)CC1 | inactive: 4.95%
14 | Cc1ccc(C(=O)NCC2(N3CCCCC3)CCCCC2)o1 | inactive: 4.43%
15 | CCC(CO)(C(=O)OC1CN2CCC1CC2)c1ccccc1 (configuration not stated) | inactive: -4.22%
16 | COc1cccc(C(=O)N(c2cc(C)cc(C)c2)C2CCN(C(=O)OC(C)(C)C)CC2)c1 | inactive: -16.4%
17 | COc1cc(OC)cc(C(=O)NCC2(N3CCOCC3)CCCCC2)c1 | inactive: 7.99%
18 | COc1cc(C(=O)NCC2(N3CCOCC3)CCCCC2)cc(OC)c1OC | inactive: 8.72%
19 | CN1CCC(Nc2ccc(Cl)cc2)CC1 | inactive: -0.816%
20 | CN1CCC(Nc2ccc(F)c(Cl)c2)CC1 | inactive: -4.31%
21 | CCOc1ncccc1C(=O)NCC1(N2CCOCC2)CCCCC1 | inactive
22 | CCCOc1ccc(C(=O)NCC2(N(C)C)CCCCC2)cc1 | inactive: 7.44%
23 | O=C(O)C1(Nc2ccccc2)CCN(Cc2ccccc2)CC1 | inactive
24 | CC(C)(C)OC(=O)N1CCC(Nc2ccccc2)CC1 | inactive: -9.73%

Row | SMILES | activity change, negative = inhibition
25 | N/C(=N\O)c1c(N)no[n+]1[O-] | inactive: -1.83%
26 | CCOC(=O)N1CCC(Nc2ccc(C)cc2)CC1 | inactive: 4.27%
27 | O=C(O)c1cccc(Nc2c([N+](=O)[O-])cc([N+](=O)[O-])cc2[N+](=O)[O-])c1 | inactive: -16.3%
28 | O=C(OC1CN2CCC1CC2)C1c2ccccc2C=Cc2ccccc21 (configuration not stated) | inactive: -6.01%
29 | CCc1cc(C(=O)NCC2(N3CCCCC3)CCCCC2)sc1C | inactive: -1.55%
30 | O=C(NCC1(N2CCOCC2)CCCCC1)c1cc(Br)ccc1Cl | inactive
31 | COc1cc(C(=O)NCC2(N3CCOCC3)CCCCC2)cc(OC)c1C | inactive: -7.89%
32 | COc1ccc(C(=O)NCC2(N3CCOCC3)CCCCC2)cc1OC | inactive: 5.9%
33 | O=C(NCC1(N2CCOCC2)CCCCC1)c1ccccc1 | inactive: -2.25%
34 | Cc1cc(N(CCCl)CCCl)ccc1C=O | inactive: -3.13%
35 | CCCN1CCC(Nc2cc(OC)cc(OC)c2)CC1 | inactive: 4.21%
36 | c1ccc(CN2CCC(Nc3ccccc3)CC2)cc1 | inactive: 1.64%
37 | CN(C)C1(CNC(=O)c2cccc(C#N)c2)CCCCC1 | inactive: 3.47%
38 | CC(C)(C)OC(=O)N1CCC(N(C(=O)c2ccccc2)c2ccc(Cl)cc2)CC1 | inactive
39 | O=C(NCC1(N2CCOCC2)CCCCC1)c1ccc([N+](=O)[O-])cc1 | inactive: 2.65%
40 | O=C(NCC1(N2CCOCC2)CCCCC1)c1ccccc1[N+](=O)[O-] | inactive
41 | N#Cc1ccc(C(=O)NCC2(N3CCCCC3)CCCCC2)cc1 | inactive: -7.31%
42 | CCOC(=O)C(CC)C1=NC(C)(C)Cc2ccccc21.O=[N+]([O-])c1cc([N+](=O)[O-])c(O)c([N+](=O)[O-])c1 (configuration not stated) | inactive: -0.235%
43 | O=C(NCC1(N2CCCCC2)CCCCC1)c1cccc(C(F)(F)F)c1 | inactive: -3.21%
44 | CCCOc1cccc(C(=O)NCC2(N3CCOCC3)CCCCC2)c1 | inactive
45 | O=[N+]([O-])c1cc([N+](=O)[O-])c(NCC2CCS(=O)(=O)C2)c([N+](=O)[O-])c1 (configuration not stated) | inactive: 2.04%
46 | CC(C)c1ccc(C(=O)NCC2(N3CCOCC3)CCCCC2)cc1 | inactive: -4.14%
47 | COc1ccc(NC2CCN(C(=O)OC(C)(C)C)CC2)cc1 | inactive
